Holding throughout (design): species or system Corynebacterium diphtheriae
One data set concerns ChtA^CR Y178H. Put plainly: ITC of hemin binding to ChtA^CR Y178H. An excerpt:
(§1) Protein samples were equilibrated in titration buffer supplemented with 5% (v/v) DMSO. […] Binding isotherms were fit to a one-site binding model using the program ORIGIN ([91]).

In data set [1] the test system is ChtA^CR (WT, residues K112-G291 of ChtA). Put plainly: ITC of hemin binding to ChtA^CR (WT).
The next data set concerns ChtA^CR K177G + Y178H. The data set is described as follows: ITC of hemin binding to ChtA^CR K177G + Y178H.
From the text: as §1

The next data set relates to ChtA^CR K177G. The data set is described as follows: ITC of hemin binding to ChtA^CR K177G.
From the text: as §1

For the next data set, the system named is ChtA^CR Y178A. The data set is described as follows: ITC of hemin binding to ChtA^CR Y178A.
From the text: as §1

hemin: the “ΔG°” value is -9.7 kcal/mol with ChtA^CR Y178H (25 °C), -10.3 kcal/mol in the data set with ChtA^CR K177G + Y178H (25 °C) and -10.1 kcal/mol in the data set on ChtA^CR Y178A (25 °C). For the same substance, the “ΔH°” value in the data set on ChtA^CR Y178H (25 °C) was -12.1 ± 0.4 kcal/mol; with ChtA^CR K177G + Y178H (25 °C), -9.9 ± 0.2 kcal/mol; in the data set on ChtA^CR K177G (25 °C), -14.5 ± 0.3 kcal/mol; with ChtA^CR Y178A (25 °C), -6.4 ± 0.3 kcal/mol. In addition, the “−TΔS°” value was 2.4 kcal/mol with ChtA^CR Y178H (25 °C (298 K)); 0.5 kcal/mol in data set [1] (25 °C (298 K)); -0.5 kcal/mol in the data set on ChtA^CR K177G + Y178H (25 °C (298 K)); 4 kcal/mol in the data set with ChtA^CR K177G (25 °C (298 K)); -3.7 kcal/mol with ChtA^CR Y178A (25 °C (298 K)). Also, in data set [1], the “TΔS°” value turned out to be 0.5 kcal/mol. Also, the “hemin binding stoichiometry parameter n” value in data set [1] (5 replicates, copies of ChtA^CR per hemin) is reported as 1.79 ± 0.166.
